Values quoted from earlier work in PMC9738830.

Tests used:
[1] = target: Amyloid β oligomers (Homo sapiens) (UniProt P05067)
[2] = target: Amyloid β oligomers (Homo sapiens) (UniProt P05067); remark: listed apart in the source

Substance	Kd [1] [nM]	Kd [2] [nM]
PrPc23–111 23-111 (from UniProt P04925)	17	
PrP (from UniProt P04925)		17

Read-outs that look alike come from different tables or passages of the source.
